## Sequence variants of PSTVd stem 3 after infection

Reference: Wu et al. 2024, doi:10.1371/journal.ppat.1012142.

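A pool of all variants was put on leaves of three Nicotiana benthamiana plants. Progeny were sequenced from the inoculated region (day 5), the margin of the inoculated leaf (day 10) and systemic leaves (day 12).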

Region: stem 3 of PSTVd (intermediate strain), upper and lower strand joined, each 5' to 3', the first 8 letters being the upper strand. Wild type: GUGGUUCCGGAACCGC. Varied positions (N): GUGGUUCCGNANNCNN.

Numbers give reads per thousand; 0 = not seen among the reads, higher = more abundant. Each site shows the three plants. "Pool" is the share in the plasmid pool used as inoculum, on the same scale. The inoculated region was read from the minus strand, the other sites from the plus strand. IR is the inoculated region, LM the leaf margin, Sys the systemic leaves.

{"sequence": "GUGGUUCCGGACCCGU", "pool": "0.985", "IR": "0.160 / 0.345 / 0.216", "LM": "0.0567 / 0 / 0.0361", "Sys": "0 / 0 / 0"}
{"sequence": "GUGGUUCCGGACCCUA", "pool": "0.877", "IR": "0.293 / 0.561 / 0.324", "LM": "0.0283 / 0 / 0.0361", "Sys": "0 / 0 / 0"}
{"sequence": "GUGGUUCCGGACCCUC", "pool": "0.739", "IR": "0.320 / 0.259 / 0.189", "LM": "0 / 0.0318 / 0", "Sys": "0.0186 / 0.0184 / 0.0243"}
{"sequence": "GUGGUUCCGGACCCUG", "pool": "0.831", "IR": "0.187 / 0.151 / 0.189", "LM": "0 / 0 / 0.0361", "Sys": "0 / 0 / 0"}
{"sequence": "GUGGUUCCGGACCCUU", "pool": "0.816", "IR": "0.560 / 0.345 / 0.162", "LM": "0 / 0 / 0", "Sys": "0 / 0 / 0"}
{"sequence": "GUGGUUCCGGACGAUG", "pool": "0.0154", "IR": "0 / 0 / 0", "LM": "0 / 0 / 0", "Sys": "0 / 0 / 0"}
{"sequence": "GUGGUUCCGGACGCAA", "pool": "0.769", "IR": "0.320 / 0.367 / 0.243", "LM": "0.0567 / 0.0954 / 0", "Sys": "0 / 0 / 0"}
{"sequence": "GUGGUUCCGGACGCAC", "pool": "0.862", "IR": "0.480 / 0.496 / 0.351", "LM": "0 / 0 / 0.0722", "Sys": "0 / 0 / 0"}
{"sequence": "GUGGUUCCGGACGCAG", "pool": "0.800", "IR": "0.426 / 0.259 / 0.243", "LM": "0 / 0 / 0.0361", "Sys": "0 / 0 / 0"}
{"sequence": "GUGGUUCCGGACGCAU", "pool": "0.585", "IR": "0.933 / 0.884 / 0.513", "LM": "0 / 0 / 0.542", "Sys": "0 / 0 / 0"}
{"sequence": "GUGGUUCCGGACGCCA", "pool": "0.708", "IR": "0.373 / 0.496 / 0.297", "LM": "0 / 0 / 0.0361", "Sys": "0 / 0 / 0"}
{"sequence": "GUGGUUCCGGACGCCC", "pool": "0.769", "IR": "0.426 / 0.496 / 0.270", "LM": "0 / 0.0318 / 0.0361", "Sys": "0 / 0 / 0"}
{"sequence": "GUGGUUCCGGACGCCG", "pool": "0.893", "IR": "0.320 / 0.561 / 0.324", "LM": "0 / 0.0318 / 0.0361", "Sys": "0 / 0 / 0"}
{"sequence": "GUGGUUCCGGACGCCU", "pool": "1.03", "IR": "0.240 / 0.173 / 0.216", "LM": "0 / 0.0318 / 0", "Sys": "0 / 0 / 0"}
{"sequence": "GUGGUUCCGGACGCGA", "pool": "0.939", "IR": "0.267 / 0.367 / 0.243", "LM": "0 / 0.0636 / 0", "Sys": "0 / 0 / 0"}
{"sequence": "GUGGUUCCGGACGCGC", "pool": "0.908", "IR": "0.373 / 0.302 / 0.270", "LM": "0 / 0 / 0", "Sys": "0 / 0 / 0"}
{"sequence": "GUGGUUCCGGACGCGG", "pool": "1.06", "IR": "0.720 / 0.798 / 0.703", "LM": "0 / 0 / 0", "Sys": "0.0746 / 0.0184 / 0.0243"}
{"sequence": "GUGGUUCCGGACGCGU", "pool": "0.893", "IR": "0.240 / 0.280 / 0.243", "LM": "0 / 0 / 0.0361", "Sys": "0 / 0 / 0"}
{"sequence": "GUGGUUCCGGACGCUA", "pool": "0.985", "IR": "0.213 / 0.216 / 0.270", "LM": "0 / 0 / 0", "Sys": "0 / 0 / 0"}
{"sequence": "GUGGUUCCGGACGCUC", "pool": "1.49", "IR": "0.853 / 0.970 / 0.567", "LM": "0 / 0 / 0", "Sys": "0.0186 / 0 / 0"}
{"sequence": "GUGGUUCCGGACGCUG", "pool": "1.31", "IR": "0.613 / 0.604 / 0.567", "LM": "0.0283 / 0 / 0", "Sys": "0 / 0 / 0"}
{"sequence": "GUGGUUCCGGACGCUU", "pool": "0.923", "IR": "0.293 / 0.367 / 0.243", "LM": "0.0283 / 0.0318 / 0", "Sys": "0 / 0 / 0"}
{"sequence": "GUGGUUCCGGACUCAA", "pool": "0.800", "IR": "0.880 / 0.604 / 0.865", "LM": "0 / 0 / 0.469", "Sys": "0 / 0 / 0"}
{"sequence": "GUGGUUCCGGACUCAC", "pool": "0.923", "IR": "0.693 / 0.518 / 0.730", "LM": "0 / 0 / 0.0361", "Sys": "0 / 0 / 0"}
{"sequence": "GUGGUUCCGGACUCAG", "pool": "2.23", "IR": "1.12 / 1.01 / 1.62", "LM": "0.510 / 0 / 0.325", "Sys": "0 / 0.111 / 0"}
{"sequence": "GUGGUUCCGGACUCAU", "pool": "0.893", "IR": "0.773 / 0.819 / 0.865", "LM": "0 / 1.18 / 0.289", "Sys": "0 / 0 / 0"}
{"sequence": "GUGGUUCCGGACUCCA", "pool": "0.831", "IR": "0.293 / 0.496 / 0.378", "LM": "0 / 0.0318 / 0", "Sys": "0 / 0 / 0"}
{"sequence": "GUGGUUCCGGACUCCC", "pool": "0.646", "IR": "0.267 / 0.323 / 0.216", "LM": "0 / 0.0318 / 0", "Sys": "0 / 0 / 0"}
{"sequence": "GUGGUUCCGGACUCCG", "pool": "0.723", "IR": "0.400 / 0.388 / 0.270", "LM": "0 / 0.0318 / 0", "Sys": "0 / 0 / 0"}
{"sequence": "GUGGUUCCGGACUCCU", "pool": "0.893", "IR": "1.12 / 1.19 / 1.27", "LM": "0 / 0 / 0", "Sys": "0 / 0 / 0.0243"}
{"sequence": "GUGGUUCCGGACUCGA", "pool": "0.708", "IR": "0.240 / 0.367 / 0.243", "LM": "0.0283 / 0.0318 / 0", "Sys": "0 / 0 / 0"}
{"sequence": "GUGGUUCCGGACUCGC", "pool": "1.57", "IR": "0.613 / 0.798 / 0.567", "LM": "0.0283 / 0.0318 / 0.0361", "Sys": "0 / 0 / 0.0243"}
{"sequence": "GUGGUUCCGGACUCGG", "pool": "1.00", "IR": "0.426 / 0.302 / 0.270", "LM": "0.0567 / 0 / 0.0361", "Sys": "0 / 0 / 0"}
{"sequence": "GUGGUUCCGGACUCGU", "pool": "1.29", "IR": "1.04 / 0.712 / 1.00", "LM": "0 / 0 / 0.758", "Sys": "0.0186 / 0 / 0.0243"}
{"sequence": "GUGGUUCCGGACUCUA", "pool": "0.846", "IR": "0.320 / 0.302 / 0.189", "LM": "0.0283 / 0 / 0.0361", "Sys": "0 / 0 / 0"}
{"sequence": "GUGGUUCCGGACUCUC", "pool": "1.11", "IR": "1.28 / 1.21 / 2.00", "LM": "0.397 / 0 / 0.686", "Sys": "0 / 0 / 0"}
{"sequence": "GUGGUUCCGGACUCUG", "pool": "1.00", "IR": "0.560 / 0.388 / 0.135", "LM": "0 / 0 / 0.0722", "Sys": "0 / 0 / 0"}
{"sequence": "GUGGUUCCGGACUCUU", "pool": "1.71", "IR": "1.23 / 1.16 / 1.30", "LM": "0 / 0 / 0", "Sys": "0.242 / 0 / 0"}
{"sequence": "GUGGUUCCGGAGACAA", "pool": "0.970", "IR": "1.09 / 0.776 / 1.54", "LM": "0.425 / 0.891 / 0.614", "Sys": "0 / 0 / 0"}
{"sequence": "GUGGUUCCGGAGACAC", "pool": "0.877", "IR": "0.720 / 0.561 / 0.757", "LM": "0 / 0 / 0", "Sys": "0 / 0 / 0"}

With 27,691-54,225 reads a sample, very low values are single reads. For reference, wild type rose from 17.3 per thousand in the pool to 330, 345, 235 (inoculated region), 794, 766, 816 (leaf margin) and 830, 792, 869 (systemic leaves). Sequences that differ at fixed positions probably stem from PCR or sequencing errors, and defective variants can be carried along by functional ones.